Pooled drug test results. Numbers come from NIAID ChemDB, via PubChem.

Common to all: whole-cell or culture tests; species: HIV-1

An empty or dashed field is not shown. ECn is the concentration giving n% inhibition of infection, replication or growth. Rows are shuffled and stem from different studies.

SMILES,changes,conditions,method,read-out,strain,cell line,value
Nc1nc2c(ncn2[C@H]2C[C@@]23C[C@H]3CO)c(=O)[nH]1,-,-,-,EC50,-,CEM + CEM-SS,>100 µM
Cc1cn([C@H]2C[C@H](N=[N+]=[N-])[C@@H](CO)O2)c(=O)[nH]c1=O,-,11 d,RT activity,EC50,LAV-Bru,U-937,>25 µM
COc1cc(C[C@@](O)(C(N)=O)[C@H](CO)Cc2ccc(OC)c(OC)c2)ccc1O,-,-,p24,EC50,IIIB,H9,<1.8 µM
CCc1cc(COCc2ccccc2)c(=O)[nH]c1C,-,-,RT activity,EC50,LAI,CEM + CEM-SS,12 µM
Nc1nc2c(ncn2[C@H]2C[C@@]23C[C@@H]3CO)c(=O)[nH]1,-,-,-,EC50,RF,CEM + CEM-SS,>100 µM
O[C@H]1OC[C@H](Cc2ccc3c(c2)OCO3)[C@H]1Cc1ccc2c(c1)OCO2,-,-,syncytia,EC50,IIIB,H9,<12.7 µM
CCCCCC=C(c1cc(Cl)c(OC)c(C(=O)NC)c1)c1cc(Cl)c(OC)c(C(=O)NC)c1,-,-,cytopathic effect / XTT,EC50,RF,CEM + CEM-SS,>21 µM
CCc1cc(COCc2ccccc2)c(OC)nc1C,-,-,RT activity,EC50,LAI,CEM + CEM-SS,>10 µM
CC(C)Nc1cccnc1N1CCN(C(=O)c2cc3cc(NS(C)(=O)=O)ccc3[nH]2)CC1,RT-L100I V106A G190A,-,p24,EC50,B9 (RT L100I V106A G190A),H9,>10 µg/mL
CCc1cc(COCc2cccc(Br)c2)c(=O)[nH]c1C,-,-,RT activity,EC50,LAI,CEM + CEM-SS,>10 µM
C=C(C)C12C[C@@H](COCc3ccccc3)[C@@]3(OO1)[C@@H]1[C@H]2O[C@H](O)CCCCCC[C@@H](C)[C@H]2[C@H](C)[C@H](OCc4ccccc4)[C@@](O)([C@H](O)[C@@]4(CO)O[C@@H]14)[C@@H]23,-,-,p24 / ELISA,EC90,NL4-3,MT-4,0.00041 µM
CCCCCC=C(c1cc(Br)c([O-])c(C(=O)O)c1)c1cc(Br)c([O-])c(C(=O)O)c1.[NH4+].[NH4+],-,-,cytopathic effect / XTT,EC50,RF,CEM + CEM-SS,>150 µM
Cc1cn([C@H]2C[C@H](N=[N+]=[N-])[C@@H](CO)O2)c(=O)[nH]c1=O,-,-,XTT,EC50,-,CEM,0.01 µM
CC1(C)C=Cc2cc3cc(O)c(=O)oc3cc2O1,-,-,MTT / syncytia,EC50,-,C8166,1.87 µM
CCc1cc(COCc2ccc(Br)cc2)c(OC)nc1C,-,-,RT activity,EC50,LAI,CEM + CEM-SS,>10 µM
COc1cc2cc3c(cc2oc1=O)OC(C)(C)C=C3,-,-,MTT / syncytia,EC50,-,C8166,3.19 µM
Nc1ncc(C2C=CC(CO)(CO)C2)c(=O)[nH]1,-,-,XTT,EC50,-,CEM,66.2 µM
CN(C)CCCn1c2ccc(O)cc2c2c3c(c4c5cc(O)ccc5[nH]c4c21)C(=O)NC3=O,-,-,p24,EC50,-,U1/HIV-1(+PMA) + U1,0.036 µM
CCc1cc(COCc2ccc(C)cc2)c(=O)[nH]c1C,-,-,RT activity,EC50,LAI,CEM + CEM-SS,>100 µM
C=C(CO)[C@@H]1Cc2cc3ccc(=O)oc3cc2O1,-,-,MTT / syncytia,EC50,-,C8166,9.08 µM
Cc1cn([C@H]2C[C@H](N=[N+]=[N-])[C@@H](COP(=O)(O)OC[C@H]3OC(O)[C@@H](O)[C@@H](O)[C@@H]3O)O2)c(=O)[nH]c1=O,-,7 d,RT activity,EC50,LAV-Bru,PBL,<1 µM
C=CC(C)(C)c1cc2cc3c(cc2oc1=O)O[C@H](C(C)(C)O)[C@H]3O,-,-,MTT / syncytia,EC50,-,C8166,0.17 µM
CC(C)C[C@@H]1[C@H](O)[C@@H](O)[C@@H](CC(C)C)N(Cc2cccc(C(=O)Nc3nc4ccccc4[nH]3)c2)C(=O)N1Cc1cccc(C(=O)Nc2nc3ccccc3[nH]2)c1,PR-I84V,3 d,-,EC50,RF,MT-2,<0.02 µM
Cc1cn([C@H]2C[C@H](N=[N+]=[N-])[C@@H](CO)O2)c(=O)[nH]c1=O,-,-,-,EC50,-,CEM + CEM-SS,0.5 µM
C=C(C)C12C[C@@H](COCc3ccccc3)[C@@]3(OO1)[C@@H]1[C@H]2OCCCCCCC[C@H](C)[C@@H]2[C@@H]3C3(O[C@]2(C)OC3=O)[C@H](O)[C@@]2(CO)O[C@@H]12,-,-,p24 / ELISA,EC90,NL4-3,MT-4,0.091 µM
COC(=O)[C@H](C)NP(=O)(OC[C@@H]1C[C@]12C[C@@H]2n1cnc2c(N)ncnc21)Oc1ccccc1,-,-,-,EC50,-,CEM + CEM-SS,3.5 µM
Cc1cn([C@H]2C[C@H](N=[N+]=[N-])[C@@H](CO)O2)c(=O)[nH]c1=O,-,-,cytopathic effect / MTT,EC90,-,PBMC,0.02 µM
CN(C)c1ccc(C[C@@H]2[C@H](O)[C@@H](O)[C@@H](Cc3ccc(N(C)C)cc3)N(Cc3cccc(C(=O)Nc4nc5ccccc5[nH]4)c3)C(=O)N2Cc2cccc(C(=O)Nc3nc4ccccc4[nH]3)c2)cc1,PR-I84V,3 d,-,EC50,RF,MT-2,<0.008 µM
CC(C)=CCN1c2cc(Cl)cc3[nH]c(=S)n(c23)C[C@@H]1C,RT-M41L T215Y A98G,-,-,EC50,-,MT-4,<0.8 µM
Cc1c(O)cccc1C(=O)N[C@@H](CSc1ccccc1)[C@H](O)CN1C[C@H]2CCCC[C@H]2C[C@H]1C(=O)NC(C)(C)C,-,-,p24,EC50,IIIB,PBMC,0.0491 µM
C=CC(C)(C)c1cc2cc3c(c(CC=C(C)C)c2oc1=O)O[C@H](C(C)(C)O)C3,-,-,MTT / syncytia,EC50,-,C8166,0.29 µM
COc1cc([C@@H]2c3cc4c(cc3[C@H](O)[C@H]3COC(=O)[C@H]23)OCO4)cc(OC)c1OC,-,-,RT activity,EC50,IIIB,H9,<0.007 µM
Nc1ccc(C[C@@H]2[C@H](O)[C@@H](O)[C@@H](Cc3ccc(N)cc3)N(Cc3cccc(C(=O)Nc4nc5ccccc5[nH]4)c3)C(=O)N2Cc2cccc(C(=O)Nc3nc4ccccc4[nH]3)c2)cc1,PR-I84V V82F,3 d,-,EC50,RF,MT-2,<0.076 µM
Cc1ccc(-c2ccc3c(c2)C=C(C(=O)Nc2ccc(C[N+](C)(C)C4CCOCC4)cc2)CCC3)cc1,-,-,p24,EC50,HHA,PBMC,0.0032 µM
C=C(C)C12C[C@@H](COCc3ccccc3)[C@@]3(OO1)[C@@H]1[C@H]2OCCCCCCC[C@@H](C)[C@H]2[C@H](C)[C@H](OCc4ccccc4)[C@@](O)([C@H](O)[C@@]4(CO)O[C@@H]14)[C@@H]23,-,-,p24 / ELISA,EC90,NL4-3,MT-4,0.0016 µM
CCc1cc(COCc2ccccc2F)c(OC)nc1C,-,-,RT activity,EC50,LAI,CEM + CEM-SS,>10 µM
COc1cc([C@H](O)[C@H](COC(C)=O)Oc2ccc(C(=O)CCO)cc2OC)ccc1O,-,-,syncytia / visual reading,EC50,IIIB,C8166,2.26 µg/mL
Cc1ccnc2c1NC(=O)c1cccnc1N2C1CC1,RT-L74V G190E,-,p24,EC50,A2(RT-L74V G190E),H9,>10 µg/mL
Cc1ccnc2c1NC(=O)c1cccnc1N2C1CC1,RT-K100I,-,cytopathic effect / MTT,EC50,-,MT-4,>10 µM
Cc1cn([C@H]2C[C@H](N=[N+]=[N-])[C@@H](COP(=O)(O)OC[C@H]3OC(O)[C@H](O)[C@@H](O)[C@@H]3O)O2)c(=O)[nH]c1=O,-,7 d,RT activity,EC50,LAV-Bru,PBL,<1 µM
CCCCCC=C(c1cc(Cl)c(O)c(C(=O)NO)c1)c1cc(Cl)c(O)c(C(=O)NO)c1,-,-,cytopathic effect / XTT,EC50,RF,CEM + CEM-SS,>37 µM
O=C(Nc1nc2ccccc2[nH]1)c1cccc(CN2C(=O)N(Cc3cccc(C(=O)Nc4nc5ccccc5[nH]4)c3)[C@H](C3CCCCC3)[C@H](O)[C@@H](O)[C@H]2C2CCCCC2)c1,-,3 d,-,EC50,RF,MT-2,<0.014 µM
CCc1cc(COCc2cccc3ccccc23)c(=O)[nH]c1C,-,-,RT activity,EC50,LAI,CEM + CEM-SS,5.8 µM
CCCC(=O)OCSc1ccccc1C(=O)NCCC(N)=O,-,-,p24 / ELISA,EC50,98IN017,PBMC,2.62 µM
Cc1cc(C#N)cc(C)c1Oc1nc(Nc2ccc(C#N)cc2)nc(N)c1Br,-,clinical isolate,luciferase,EC50,Clinical isolate,HEK293T,0.00226 µM
COc1cc(C[C@@]2(O)C(=O)OC[C@@H]2Cc2ccc(OC)c(OC)c2)ccc1O,-,-,RT activity,EC50,IIIB,H9,~0.52 µM
CC(C)C[C@@H]1[C@H](O)[C@@H](O)[C@@H](Cc2ccccc2)N(Cc2cccc(C(=O)Nc3nc4ccccc4[nH]3)c2)C(=O)N1Cc1cccc(C(=O)Nc2nc3ccccc3[nH]2)c1,PR-I84V V82F,3 d,-,EC50,RF,MT-2,<0.082 µM
CC(C)(C)NC(=O)[C@@H]1CN(Cc2cccnc2)CCN1C[C@@H](O)C[C@@H](Cc1ccccc1)C(=O)N[C@H]1c2ccccc2C[C@H]1O,Indinavir-resistant (PR L10R M46I L63P V82T I84V),-,cytopathic effect / neutral red,EC50,NL4-3,MT-2,0.0313 µM
CCc1cc(COCc2ccc(C)cc2)c(OC)nc1C,-,-,RT activity,EC50,LAI,CEM + CEM-SS,>10 µM
CCCCCC=C(c1cc(Cl)c(OC)c(C(N)=O)c1)c1cc(Cl)c(OC)c(C(N)=O)c1,-,-,cytopathic effect / XTT,EC50,RF,CEM + CEM-SS,>31 µM
Nc1nc2c(ncn2[C@H]2C[C@]23C[C@@H]3CO)c(=O)[nH]1,-,-,-,EC50,-,CEM + CEM-SS,>100 µM

5 of the rows above, restated:

| SMILES | changes | conditions | method | read-out | strain | cell line | value |
|---|---|---|---|---|---|---|---|
| C=CC(C)(C)c1cc2cc3c(cc2oc1=O)O[C@H](C(C)(C)O)[C@H]3O | - | - | MTT / syncytia | EC50 | - | C8166 | 0.17 µM |
| Nc1nc2c(ncn2[C@H]2C[C@]23C[C@@H]3CO)c(=O)[nH]1 | - | - | - | EC50 | - | CEM + CEM-SS | >100 µM |
| CCc1cc(COCc2ccc(C)cc2)c(OC)nc1C | - | - | RT activity | EC50 | LAI | CEM + CEM-SS | >10 µM |
| CCc1cc(COCc2ccccc2)c(=O)[nH]c1C | - | - | RT activity | EC50 | LAI | CEM + CEM-SS | 12 µM |
| Nc1nc2c(ncn2[C@H]2C[C@@]23C[C@H]3CO)c(=O)[nH]1 | - | - | - | EC50 | - | CEM + CEM-SS | >100 µM |